Anti-infective test results gathered from many reports (values: NIAID ChemDB through PubChem).

Shared fields: whole-cell or culture tests; organism: Semliki Forest virus; endpoint: EC50

Rows are shuffled and stem from different studies. An empty or dashed field is not shown. ECn: concentration that inhibits the pathogen or its effect by n%.

SMILES | strain or isolate | cell line | read by | result
Nc1ncnc2c1ncn2[C@@H]1C[C@H](CO)[C@@H](O)[C@H]1O | - | VERO | cytopathic effect | 2 µg/mL
[N-]=[N+]=N[C@H]1[C@@H](F)[C@H](n2cnc3c(N)ncnc32)O[C@@H]1CO | - | VERO B | cytopathic effect | >200 µg/mL
Cc1cn([C@@H]2O[C@H](CO)[C@](O)(C(F)(F)F)[C@H]2O)c(=O)[nH]c1=O | - | VERO | cytopathic effect | >200 µg/mL
C=C(N=CC)c1nc(-c2ccc(C)cc2)n(C2O[C@H](CO)[C@@H](O)[C@H](O)[C@H]2O)n1 | - | VERO | cytopathic effect | >100 µg/mL
N#Cc1cncc([C@H]2O[C@H](CO)[C@@H](O)[C@@H]2O)c1 | - | VERO | cytopathic effect | ≥100 µg/mL
CC(=O)OCCOCN1C=C(C#N)C(N)=NS1(=O)=O | - | VERO | - | >400 µg/mL
Nc1nc2c(ncn2CC[C@H](O)CCO)c(=O)[nH]1 | - | VERO | cytopathic effect | >400 µg/mL
Nc1ncnc2c1ncn2[C@@H]1C=C(CO)[C@@H](O)[C@H]1O | - | VERO | cytopathic effect | >40 µg/mL
Nc1ncnc2c1ncn2[C@@H]1O[C@H](CO)[C@](O)(C(F)(F)F)[C@H]1O | - | VERO | cytopathic effect | >200 µg/mL
CO[C@H](CO)[C@@H](O)CCn1ccc(N)nc1=O | - | VERO | cytopathic effect | >400 µg/mL
O=c1[nH]c(=S)cnn1[C@@H]1O[C@H](CO)C(O)C1O | Sicilian | VERO | cytopathic effect | 18.9 µg/mL
Nc1ccn(CC[C@H](O)CCO)c(=O)n1 | - | VERO | cytopathic effect | >400 µg/mL
Nc1ncnc2c1ncn2[C@@H]1C=C(CCl)[C@@H](O)[C@H]1O | - | VERO | cytopathic effect | >40 µg/mL
NC(=S)c1cncc([C@@H]2O[C@H](CO)[C@@H](O)[C@@H]2O)c1 | - | VERO | cytopathic effect | ≥100 µg/mL
CC(=O)OC[C@H]1O[C@@H](n2ncc(=S)[nH]c2=O)C(OC(C)=O)C1OC(C)=O | Sicilian | VERO | cytopathic effect | 24.8 µg/mL
NC1=CC(N)=NS(=O)(=O)N1COCCO | - | VERO | - | >400 µg/mL
CC(=O)Nc1nc2c(CC(O)CO)ncn2c(=O)[nH]1 | - | VERO | cytopathic effect | >200 µg/mL
C=C(N=CC)c1nc(-c2ccc(OC)cc2)n([C@@H]2O[C@H](CO)[C@@H](O)[C@H]2O)n1 | - | VERO | cytopathic effect | >100 µg/mL
CC1(C)OC2C(O1)[C@@H](COS(=O)(=O)NC(=O)OC1O[C@H](COCc3ccccc3)[C@@H](OCc3ccccc3)[C@H](OCc3ccccc3)[C@H]1OCc1ccccc1)O[C@H]2n1ncc(=O)[nH]c1=O | Sicilian | VERO | cytopathic effect | 246 µg/mL
Cc1nc(CC(O)CO)c2nc[nH]c(=O)n12 | - | VERO | cytopathic effect | >400 µg/mL
CC(=O)OCCOCN1C(=N)/C(=C(\C)O)C(N)=NS1(=O)=O | - | VERO | - | >400 µg/mL
Cc1cn(C(CF)CCCO)c(=O)[nH]c1=O | - | VERO | cytopathic effect | >400 µg/mL
Nc1ncnc2c1ncn2C1CC(COP(=O)(O)O)[C@@H](O)[C@H]1O | - | VERO | cytopathic effect | ≥10 µg/mL
CC=NC(=N)c1nc(-c2cccc(OC)c2)n(C/C=C/c2ccccc2)n1 | - | VERO | cytopathic effect | >40 µg/mL
NC(=O)c1cncc([C@@H]2O[C@H](CO)[C@@H](O)[C@@H]2O)c1 | - | VERO | cytopathic effect | ≥100 µg/mL
Nc1ccn([C@@H]2C=C(CO)[C@@H](O)[C@H]2O)c(=O)n1 | - | VERO | cytopathic effect | 0.4 µg/mL
OC[C@H]1O[C@H](c2cncc(Br)c2)[C@@H](O)[C@@H]1O | - | VERO | cytopathic effect | ≥100 µg/mL
CO[C@H](CO)[C@@H](O)CCn1cc(C)c(=O)[nH]c1=O | - | VERO | cytopathic effect | >400 µg/mL
[N-]=[N+]=N[C@H]1[C@@H](F)[C@H](N2C=CC(N)NC2=O)O[C@@H]1CO | - | VERO B | cytopathic effect | >400 µg/mL
CC=NC(=N)c1nc(-c2cccc(C)c2)n(Cc2ccccc2)n1 | - | VERO | cytopathic effect | >10 µg/mL
C=CCc1nc(C)n2c(=O)[nH]cnc12 | - | VERO | cytopathic effect | >200 µg/mL
CC=NC(=N)c1nc(-c2ccccc2)n(COCCO)n1 | - | VERO | cytopathic effect | >200 µg/mL
N#Cc1cncc([C@H]2O[C@H](CO)[C@H](O)[C@@H]2O)c1 | - | VERO | cytopathic effect | ≥100 µg/mL
N#CC1=CN(COCCO)S(=O)(=O)N=C1N | - | VERO | - | >400 µg/mL
Nc1ncnc2c1ncn2[C@@H]1C=C(CF)[C@H](O)[C@H]1O | - | VERO | cytopathic effect | >200 µg/mL
C/C(O)=C1\C(=N)N(COCCO)S(=O)(=O)N=C1N | - | VERO | - | >400 µg/mL
Nc1ncnc2c1ncn2C(CF)CCCO | - | VERO | cytopathic effect | >400 µg/mL
O=c1ccn([C@@H]2O[C@H](CO)[C@@H](F)[C@H]2O)c(=O)[nH]1 | - | VERO B | cytopathic effect | >400 µg/mL
CC=NC(=N)c1nc(-c2ccc(OC)cc2)n(Cc2ccccc2)n1 | - | VERO | cytopathic effect | >10 µg/mL
CC(=O)OC[C@H]1O[C@@H](n2ncc(=O)[nH]c2=S)C(OC(C)=O)C1OC(C)=O | Sicilian | VERO | cytopathic effect | 20.9 µg/mL
C=C(N=CC)c1nc(-c2ccccc2)n([C@@H]2O[C@H](CO)[C@@H](O)[C@H]2O)n1 | - | VERO | cytopathic effect | >100 µg/mL
Cc1cn([C@H]2C[C@H]([N+](=O)[O-])[C@@H](CO)O2)c(=O)[nH]c1=O | - | VERO | cytopathic effect | >200 µg/mL
CC=NC(=N)c1nc(-c2ccc(C)cc2)n(C/C=C/c2ccccc2)n1 | - | VERO | cytopathic effect | >10 µg/mL
Nc1nc2c(ncn2CCCC(O)CF)c(=O)[nH]1 | - | VERO | cytopathic effect | >400 µg/mL

4 of the rows above, restated:

SMILES | strain or isolate | cell line | read by | result
Nc1nc2c(ncn2CC[C@H](O)CCO)c(=O)[nH]1 | - | VERO | cytopathic effect | >400 µg/mL
CC=NC(=N)c1nc(-c2ccc(C)cc2)n(C/C=C/c2ccccc2)n1 | - | VERO | cytopathic effect | >10 µg/mL
CC(=O)OC[C@H]1O[C@@H](n2ncc(=O)[nH]c2=S)C(OC(C)=O)C1OC(C)=O | Sicilian | VERO | cytopathic effect | 20.9 µg/mL
CO[C@H](CO)[C@@H](O)CCn1ccc(N)nc1=O | - | VERO | cytopathic effect | >400 µg/mL